Anti-infective test results gathered from many reports (values: NIAID ChemDB through PubChem).

All rows: whole-cell or culture tests; species: Aspergillus niger; endpoint: inhibition

Lines come from different laboratories, so protocols vary. An empty or dashed field is not shown. Inhibition is in % at the dose shown (toxicity tests: loss of growth or viability).

CC(=O)CC(O)c1coc2cc(O)c(O)c(C(=O)O)c2c1=O ; method: absorbance ; dose: 200 µg/mL ; result: 59.95%
O=C(O)CC(=O)OCC1OC(Oc2c[nH]c3ccccc23)C(O)C(=O)C1O ; strain: ATCC 1015 ; dose: 400 µg/mL ; result: 47.7%
CSc1ccc(C2CC(c3cccc4c3OCO4)=NN2c2ccccc2)cc1 ; strain: NCIM 596 ; method: broth dilution ; dose: 2000 µg/mL ; result: 71.37%
C/C(=N\NC(=S)Nc1cccc([N+](=O)[O-])c1)c1c(O)ccc2c(C)cc(=O)oc12 ; method: agar diffusion / agar ; dose: 100 µg/mL ; result: 80.17%
N#C/C(=C1/Nc2ccccc2C1=O)c1c[nH]c2ccccc12 ; strain: ATCC 1015 ; dose: 400 µg/mL ; result: 59.7%
O=C(CSc1nc2ccccc2[nH]1)c1c([O-])on[n+]1-c1cccc(Cl)c1 ; method: agar diffusion ; dose: 20 µg/mL ; result: 0%
CS(=O)(=O)c1ccc(C2CC(c3ccc(Cl)cc3)=NN2c2ccccc2)cc1 ; strain: NCIM 596 ; method: broth dilution ; dose: 2000 µg/mL ; result: 97.54%
CC(=O)N1N=C(c2sc3ccc(Cl)cc3c2Cl)OC1c1ccccc1 ; strain: ATCC 9029 ; method: agar diffusion / agar ; dose: 40 µg/mL ; result: 27%
Cc1ccc(-[n+]2noc([O-])c2C(=O)CSc2nc3ccccc3[nH]2)cc1Cl ; method: agar diffusion ; dose: 20 µg/mL ; result: 0%
Clc1ccc2c(c1)nnc1nnnn12 ; strain: CCM F-384 ; dose: 22 µg/mL ; result: 90%
O=C(CSc1nc2ccccc2[nH]1)c1c([O-])on[n+]1-c1ccc(Br)cc1 ; method: agar diffusion ; dose: 20 µg/mL ; result: 0%
CSc1ccc(C2CC(c3cccc([N+](=O)[O-])c3)=NN2c2ccccc2)cc1 ; strain: NCIM 596 ; method: broth dilution ; dose: 2000 µg/mL ; result: 65.16%
O=S(=O)(O)O/N=C(\Cc1cn(S(=O)(=O)O)c2ccccc12)SC1OC(CO)C(O)C(O)C1O ; strain: ATCC 1015 ; dose: 400 µg/mL ; result: 59.1%
CSc1ccc(C2CC(c3ccccc3)=NN2c2ccccc2)cc1 ; strain: NCIM 596 ; method: broth dilution ; dose: 2000 µg/mL ; result: 93.52%
Cc1cc(C=Nc2ccc(N=Cc3cc(C)cc(/C=N/Nc4nc5ccccc5s4)c3O)cc2)c(O)c(/C=C/Nc2nc3ccccc3s2)c1 ; method: turbidity ; dose: 10 µg/mL ; result: 7.55%
COc1cccc(C2=NN(c3ccccc3)C(c3ccc(SC)cc3)C2)c1 ; strain: NCIM 596 ; method: broth dilution ; dose: 2000 µg/mL ; result: 90.14%
COc1cc(Cl)ccc1-[n+]1noc([O-])c1C(=O)CSc1nc2ccccc2[nH]1 ; method: agar diffusion ; dose: 20 µg/mL ; result: 0%

A second listing of 2 rows from above:

compound,strain,method,dose,result
C/C(=N\NC(=S)Nc1cccc([N+](=O)[O-])c1)c1c(O)ccc2c(C)cc(=O)oc12,,agar diffusion / agar,100 µg/mL,80.17%
CS(=O)(=O)c1ccc(C2CC(c3ccc(Cl)cc3)=NN2c2ccccc2)cc1,NCIM 596,broth dilution,2000 µg/mL,97.54%